Data taken from ChEMBL document CHEMBL1122420, “Parasympatholytic (anticholinergic) esters of the isomeric 2-tropanols. 2. Non-glycolates” (J Med Chem, 1983).

System: Mus musculus
Assay: LD50 in mice following i.v. administration.
Format: organism-based
Conditions: in vivo, iv

COc1cc(C(=O)OC2CN3CCC2CC3)cc(OC)c1OC (stereo unspecified)
LD50: 18 mg/kg
